Only a part is listed here, and it is no random draw. Results filed as inconclusive are left out. Activity calls are given as the source filed them. Unless noted, calls come from the whole dose curve; as a rule, active = well fitted curve in the direction sought with a large enough effect; inconclusive = small, poorly fitted or top-dose-only effect, or another doubt; inactive = no such curve, though single readings can be large; an effect the other way counts as inactive or inconclusive.

By UniProt entry, the sequences of proteins in these tests, tags left out. Where a name states a change or a piece, a line headed by the entry shows the natural chain unless it says otherwise.
UniProt P09992: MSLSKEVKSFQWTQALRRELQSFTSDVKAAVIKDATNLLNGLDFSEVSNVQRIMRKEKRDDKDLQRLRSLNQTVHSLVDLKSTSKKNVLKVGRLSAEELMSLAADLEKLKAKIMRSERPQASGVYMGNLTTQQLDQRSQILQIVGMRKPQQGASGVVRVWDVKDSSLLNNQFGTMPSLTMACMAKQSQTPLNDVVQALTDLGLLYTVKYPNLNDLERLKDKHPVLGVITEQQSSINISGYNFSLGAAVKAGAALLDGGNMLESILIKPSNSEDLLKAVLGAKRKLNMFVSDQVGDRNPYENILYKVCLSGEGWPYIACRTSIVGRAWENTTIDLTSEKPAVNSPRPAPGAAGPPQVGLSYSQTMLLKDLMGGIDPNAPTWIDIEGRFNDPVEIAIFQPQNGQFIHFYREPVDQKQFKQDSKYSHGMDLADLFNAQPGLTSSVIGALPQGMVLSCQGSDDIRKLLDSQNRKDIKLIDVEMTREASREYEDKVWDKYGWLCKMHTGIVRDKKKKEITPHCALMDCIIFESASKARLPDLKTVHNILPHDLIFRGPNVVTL
UniProt P13267: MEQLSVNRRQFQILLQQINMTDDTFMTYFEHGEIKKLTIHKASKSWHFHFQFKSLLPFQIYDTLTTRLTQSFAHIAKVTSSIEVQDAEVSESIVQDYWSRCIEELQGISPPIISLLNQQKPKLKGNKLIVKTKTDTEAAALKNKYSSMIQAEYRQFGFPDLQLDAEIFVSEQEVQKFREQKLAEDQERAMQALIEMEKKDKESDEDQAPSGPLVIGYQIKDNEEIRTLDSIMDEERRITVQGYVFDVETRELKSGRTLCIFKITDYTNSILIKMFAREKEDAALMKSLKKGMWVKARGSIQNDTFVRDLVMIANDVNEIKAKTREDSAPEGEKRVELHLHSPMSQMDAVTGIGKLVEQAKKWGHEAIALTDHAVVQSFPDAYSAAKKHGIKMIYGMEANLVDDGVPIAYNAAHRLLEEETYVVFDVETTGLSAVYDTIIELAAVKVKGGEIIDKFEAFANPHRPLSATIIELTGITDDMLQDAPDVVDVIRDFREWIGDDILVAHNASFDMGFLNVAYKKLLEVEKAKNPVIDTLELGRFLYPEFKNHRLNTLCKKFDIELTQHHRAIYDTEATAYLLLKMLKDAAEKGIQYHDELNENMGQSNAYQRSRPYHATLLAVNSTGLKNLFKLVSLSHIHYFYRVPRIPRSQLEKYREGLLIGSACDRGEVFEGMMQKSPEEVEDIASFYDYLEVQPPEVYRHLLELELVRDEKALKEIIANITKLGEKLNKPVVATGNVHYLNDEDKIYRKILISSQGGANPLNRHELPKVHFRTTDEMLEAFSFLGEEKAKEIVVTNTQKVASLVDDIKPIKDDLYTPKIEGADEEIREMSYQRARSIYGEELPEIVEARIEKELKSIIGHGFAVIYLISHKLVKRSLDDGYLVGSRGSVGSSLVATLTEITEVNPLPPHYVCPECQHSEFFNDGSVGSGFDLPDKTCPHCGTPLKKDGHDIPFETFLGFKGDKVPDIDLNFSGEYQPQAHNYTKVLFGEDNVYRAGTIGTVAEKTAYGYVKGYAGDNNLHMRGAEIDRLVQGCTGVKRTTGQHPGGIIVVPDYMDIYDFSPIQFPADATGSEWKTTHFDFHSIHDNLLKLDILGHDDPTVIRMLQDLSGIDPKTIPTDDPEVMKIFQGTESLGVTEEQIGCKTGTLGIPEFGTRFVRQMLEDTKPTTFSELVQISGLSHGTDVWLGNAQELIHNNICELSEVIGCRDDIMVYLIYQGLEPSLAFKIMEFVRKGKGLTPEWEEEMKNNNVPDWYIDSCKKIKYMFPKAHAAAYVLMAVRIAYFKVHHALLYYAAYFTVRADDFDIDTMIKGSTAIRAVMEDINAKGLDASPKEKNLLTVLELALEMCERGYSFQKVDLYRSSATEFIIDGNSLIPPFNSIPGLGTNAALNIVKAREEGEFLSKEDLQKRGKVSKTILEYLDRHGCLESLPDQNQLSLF
UniProt Q99816: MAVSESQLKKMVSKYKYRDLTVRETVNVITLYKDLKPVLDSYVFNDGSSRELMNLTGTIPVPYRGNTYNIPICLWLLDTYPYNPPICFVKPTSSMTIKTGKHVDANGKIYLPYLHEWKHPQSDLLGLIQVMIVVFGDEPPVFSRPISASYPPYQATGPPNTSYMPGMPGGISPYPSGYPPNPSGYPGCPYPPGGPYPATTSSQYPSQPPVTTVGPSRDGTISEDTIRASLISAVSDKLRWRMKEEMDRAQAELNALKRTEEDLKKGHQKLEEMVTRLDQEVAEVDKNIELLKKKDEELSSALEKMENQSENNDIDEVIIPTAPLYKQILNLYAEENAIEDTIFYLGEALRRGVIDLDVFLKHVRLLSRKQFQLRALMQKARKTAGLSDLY

The nature of experiment [1]: qHTS profiling of the MIPE4 collection as inhibitors of Plasmodium falciparum (3D7) proliferation (AID 743344; call rule not given here;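 note: scaled between DMSO vehicle wells and 0.29 µM artemisinin as full inhibition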). Particulars: P. falciparum 3D7 in erythrocytes, SYBR Green DNA fluorescence, 72 h; at 28.5 µM. In general terms: qHTS replaces the single test concentration by a dilution series.
Experiment [2] in a line: qHTS profiling of the MIPE4 collection as inhibitors of Plasmodium falciparum (DD2) proliferation (AID 743345; call rule not given here). Particulars: P. falciparum Dd2 in erythrocytes, SYBR Green DNA, 72 h; at 28.5 µM.
A short description of experiment [3]: qHTS profiling of the MIPE4 collection as inhibitors of Plasmodium falciparum (DD2) proliferation (Rep 2) (AID 743346; call rule not given here). The following applies: P. falciparum Dd2 in erythrocytes, SYBR Green DNA, 72 h; at 28.5 µM.
Experiment [4] in a line: qHTS profiling of the MIPE4 collection as inhibitors of Plasmodium falciparum (HB3) proliferation (AID 743347; call rule not given here;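 note: plate controls were DMSO vehicle wells for no effect and artemisinin wells for full effect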). The following applies: P. falciparum HB3 in erythrocytes, SYBR Green DNA, 72 h; at 28.5 µM.
The nature of experiment [5]: qHTS assay for measurement of the activity of small molecule inhibitors on Zika virus induced Caspase-3 activity in human iPSC derived neural progenitor cells (hNPCs) (AID 1224857). Note: % of control where 0% means no effect; nearly all actives have a fitted effect of over 65% in size. The following applies: hNPCs ZIKV-induced caspase-3/7, Caspase-Glo luminescence, 6 h; at 45.7 µM (top of the series) unless noted.
Experiment [6] is described as follows: qHTS assay for measurement of the activity of small molecule inhibitors on Zika virus induced Caspase-3 activity in human astrocytoma cells (AID 1224859).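 Note: plate controls were ZIKV-infected untreated cells for no effect and uninfected cells for full effect.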 The following applies: SNB-19 ZIKV-induced caspase-3/7, luminescence, 6 h; at 45.7 µM (top of the series) unless noted.
The nature of experiment [7]: NS1 protein of Zika virus - qHTS assay to identify small molecule inhibitors in human HEK 293 cells (AID 1347053).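 Note: plate controls were infected untreated cells for no effect and uninfected cells for full effect; nearly all actives have a fitted effect of over 55% in size.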 Particulars: HEK293 ZIKV MR766 infection, NS1 TR-FRET, 24 h; at 46.1 µM (top of the series) unless noted.
A short description of experiment [8]: qHTS for Inhibitors of the Functional Ribonucleoprotein Complex (vRNP) of Lassa (LASV) Arenavirus: LASV Primary Screen - GLuc reporter signal (AID 1347082; calls by dose curve; tested in HEK293 reporter line; note: % is set by controls: 0 for no effect and ±100 for the full control effect; nearly all actives have a fitted effect of over 60% in size). Particulars: LASV minigenome vRNP, Gaussia luciferase reporter; at 57.5 µM (top of the series) unless noted.
A short description of experiment [9]: qHTS for Inhibitors of the Functional Ribonucleoprotein Complex (vRNP) of Lassa (LASV) Arenavirus: Viability assay - alamar blue signal for LASV Primary Screen (AID 1347083; calls by dose curve; tested in HEK293 reporter line; note: % is set by controls: 0 for no effect and ±100 for the full control effect; nearly all actives have a fitted effect of over 80% in size). Particulars: cell viability, alamar blue fluorescence (LASV minigenome counter-screen); at 57.5 µM (top of the series) unless noted.
A short description of experiment [10]: qHTS for Inhibitors of the Functional Ribonucleoprotein Complex (vRNP) of Lymphocytic Choriomeningitis Arenaviruses (LCMV): Viability assay - alamar blue signal for LCMV Primary Screen (AID 1347085; calls by dose curve; tested in HEK293 reporter line; note: % is set by controls: 0 for no effect and ±100 for the full control effect; nearly all actives have a fitted effect of over 80% in size). The following applies: alamar blue viability counter-screen, LCMV vRNP screen cells; at 57.5 µM (top of the series) unless noted.
The target in experiment [11] is Nucleoprotein (Lymphocytic choriomeningitis virus (strain Armstrong)) (UniProt P09992). Kind of experiment: qHTS for Inhibitors of the Functional Ribonucleoprotein Complex (vRNP) of Lymphocytic Choriomeningitis Arenaviruses (LCMV): LCMV Primary Screen - GLuc reporter signal (AID 1347086; calls by dose curve; note: % is set by controls: 0 for no effect and ±100 for the full control effect; nearly all actives have a fitted effect of over 70% in size). Particulars: LCMV minigenome vRNP cell assay, Gaussia luciferase reporter; at 57.5 µM (top of the series) unless noted.

The subject of experiment [12] is Zika virus NS2B-NS3 protease (unlinked complex). The experiment in a line: Primary screen GU Rhodamine qHTS for Zika virus inhibitors: Unlinked NS2B-NS3 protease assay (AID 1347159). Note: % is set by controls: 0 for no effect and ±100 for the full control effect; nearly all actives have a fitted effect of over 60% in size. The following applies: Recombinant ZIKV NS2B-NS3 protease, Rhodamine110 substrate fluorescence; at 107 µM (top of the series). A digest of the protocol:
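Percent inhibition derives from the 15-min fluorescence change (ex 480, em 540 nm), normalized to no-enzyme and no-inhibitor wells. Reactions contained 25 nM NS2B-NS3 complex and 1.5 microM substrate in 10 mM Tris-HCl pH 8.0.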

The subject of experiment [13] is Zika virus NS2B-NS3 protease (linked construct). Kind of experiment: Primary screen NINDS Rhodamine qHTS for Zika virus inhibitors (AID 1347160). Note: % is set by controls: 0 for no effect and ±100 for the full control effect; nearly all actives have a fitted effect of over 55% in size. The following applies: purified NS2B-NS3 protease, Rhodamine110 substrate fluorescence; activity change, negative = inhibition: at 57.1 µM (top of the series). Summed up:
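In 10 mM Tris-HCl pH 8.0 containing 0.01% Tween 20, linked NS2B-NS3 protease (25 nM final) is exposed to test compounds for 15 min. Cleavage of 1.5 microM Rhodamine110 substrate is tracked by fluorescence over 15 min.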

For experiment [14], the target named is Endonuclease 4 (Escherichia coli (strain K12)) (UniProt P0A6C1). Kind of experiment: Counterscreen for APE1 Inhibitors: qHTS Validation Assay for Inhibitors of Endonuclease IV (AID 1708). Note: % is set by controls: 0 for no effect and ±100 for the full control effect. The following applies: E. coli endonuclease IV, DNA cleavage fluorescence; at 57.1 µM (top of the series). A digest of the protocol: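 E. coli EndoIV at 2 nM final, preincubated 15 min at room temperature with compound, then 50 nM TAMRA/BHQ-2 THF abasic-site duplex added. Buffer: 50 mM Tris-HCl pH 7.5, 50 mM NaCl, 2 mM MgCl2, 1 mM DTT, 0.01% Tween-20. Kinetic fluorescence increase, third minus first read.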
On the technique in general: The purpose of a counterscreen is to sort out artefacts and off-target activity.

Experiment [15] deals with DNA polymerase III PolC-type (Bacillus subtilis (strain 168)) (UniProt P13267). Kind of experiment: qHTS Validation Assay for the Inhibitors of DNA Replication in Gram-Positive Bacteria (AID 485295).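 Note: PicoGreen fluorescence of double-stranded DNA made on primed circular M13 template; 0% = DMSO wells and -100% = EDTA-quenched background wells.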 The following applies: Gram-positive bacterial DNA replication assay; at 57.1 µM (top of the series). Summed up:
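Reconstituted B. subtilis Pol III holoenzyme (PolC, beta clamp, SSB, primase) preincubated with compound, then M13Gori single-stranded circular template with dNTPs/NTPs added; room temperature reaction. Stopped with EDTA/PicoGreen; dsDNA fluorescence read, EDTA as full-inhibition control.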

The target in experiment [16] is Tumor susceptibility gene 101 protein (Homo sapiens) (UniProt Q99816). The experiment in a line: qHTS Validation Assay for Iinhibitors of HIV-1 Budding by Blocking the Interaction of PTAP/TSG101 (AID 485342; calls by dose curve; note: 0% is about no effect). Particulars: TSG101-PTAP binding, fluorescence polarization, 4-point titration; at 115 µM (top of the series). A digest of the protocol: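 Tsg101 binding domain (10 uM) with FITC-labeled PTAP peptide (50 nM) in HEPES pH 7.5 buffer, 20 min at r.t. with compounds. Binding measured by fluorescence polarization.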

The target in experiment [17] is Phosphoglycerate kinase, glycosomal (Trypanosoma brucei brucei) (UniProt P07378). Kind of experiment: qHTS Validation Assay to Find Inhibitors of Phosphoglycerate Kinase (AID 504547).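 Note: control wells lack PGK and mark full inhibition.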 The following applies: enzymatic PGK inhibition, coupled luminescence read-out; at 57.5 µM (top of the series). Summed up:
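PGK activity was coupled to GAPDH (100nM final), which generates the unstable substrate 1,3-bisphosphoglycerate in-well. Reactions ran 60 minutes at room temperature in 100mM TEA pH 7.6, 5mM MgCl2, 0.01% Tween-20, then Kinase-Glo Plus luminescence was read.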

Experiment [18] is described as follows: qHTS of Trypanosoma Brucei Inhibitors: LOPAC Validation (AID 624147). Note: 0% is about no effect. The following applies: Trypanosoma brucei growth inhibition; at 57.5 µM (top of the series). Summed up: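 Assay buffer: 50 mM TEA pH 7.2, 100 mM KCl, 10 mM MgCl2, 0.05% BSA, 0.01% Tween-20. Pyruvate kinase from T. brucei plus substrate met compound, then ADP (130 uM final). Luminescence was read post 45 min RT.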

For experiment [19], the system named is Zika virus NS2B-NS3 protease (unlinked). The experiment in a line: Optimization of GU AMC qHTS for Zika virus inhibitors: Unlinked NS2B-NS3 protease assay (AID 1347151).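 Note: 0% = no-inhibitor control and -100% = no-enzyme control; nearly all actives have a fitted effect of over 80% in size.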 Particulars: recombinant ZIKV NS2B-NS3 protease, fluorogenic AMC substrate; at 52.5 µM (top of the series). A digest of the protocol:
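Noncovalent NS2B hydrophilic domain–NS3 protease complex (25 nM final) in 10 mM Tris-HCl pH 8.0, 0.01% Tween 20; AMC substrate, room temperature 15 min (~20% conversion); fluorescence change normalized, 4-parameter Hill fit.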

Consider `CCn1c(=O)n([C@@H]2CCN(CC3CCCCCCC3)C[C@@H]2CO)c2ccccc21`, for which, in experiment [1], the parasite growth, % of DMSO control was 9.33%. The same compound yielded a parasite growth remaining, % of DMSO control (lower = more inhibition) in experiment [2] of 24.9%. Moreover, the parasite growth, % of control (lower = inhibition) in experiment [3] was determined as 23.7%. This compound displayed a growth, % of control in [4] of 10.1%. The activity change, negative = inhibition in experiment [5] was inactive: 34.7%; in experiment [6] it was inactive: 19.6%; in experiment [7], inactive: -3.84%; in [8] it was inactive: -0.308%; in experiment [11], inactive: -2.57%. Besides, the activity change, negative = reduced viability in experiment [9] was inactive: 0.683%. Further, the activity change, negative = lower viability in [10] is inactive: 11.9%.
For the compound `CN(C(=O)Cc1ccc(Cl)c(Cl)c1)[C@H]1CCCC[C@H]1N1CCCC1`, the activity change, negative = inhibition in experiment [12] was inactive: 20.4%; in [13] it was inactive: 55.8%.
With `CN(C(=O)Cc1ccc(Cl)c(Cl)c1)[C@@H]1CCCC[C@@H]1N1CCCC1`, the activity change, negative = inhibition in [14] was inactive: -6.83%; in experiment [15], inactive: 4.15%; in experiment [18] it was inactive: -6.3%; in [5] it was inactive: -2.51%; in [6], inactive: 2.5%; in [7], inactive: 3%. Besides, the activity change, negative = inhibition was inactive: 4.64% in experiment [8], inactive: 2.82% in [11] and inactive: 1.38% in [19]. Besides, in experiment [16], the fluorescence change was inactive: -4.21%. Also, the activity, negative = inhibition in experiment [17] is inactive: 0.048%. Besides, in [9], the activity change, negative = reduced viability is inactive: -11.8%. Also, the activity change, negative = lower viability in experiment [10] was inactive: -4.82%.

For the origin of these results see PubChem BioAssay (NCATS).
